Here are results for 1 substance from patent publication US20170028016A1, “METHODS OF TREATMENT OF C. DIFFICILE SPORES WITH RAMOPLANIN” (Nanotherapeutics, Inc., priority 2014, published 2017).

The test system of the series is Streptococcus salivarius. The series can be described thus: Ramoplanin bioassay: zone of inhibition on S. salivarius lawns, unbound ramoplanin in supernatants of exposed spores.

As for ramoplanin, where the note is “D0 to D28 after 30 min exposure”, the “bioassay zone of inhibition over time” value is given as “decline in the bioassay's zone of inhibition over time”. Also, the “stability of unbound ramoplanin concentrations recovered from spores” value (spores exposed to 300 and 600 μg/mL for 30 min, D1-D28) is given as “stable”.
